Test results as given in patent publication US6623741B1, “Methods and compositions for inhibition of membrane fusion-associated events including RSV transmission” (Trimeris, Inc., priority 2000, dated 2003).

Assay: Analytical ultracentrifugation (sedimentation equilibrium)
Format: physicochemical
Description: Analytical Ultracentrifugation:
Sedimentation equilibrium experiments were performed on a Beckman Optima XL-A analytical ultracentrifuge at 4° C. Six-channel cells (12 mm optical path length) were used with an An-60 Ti rotor operated at 13,500, 16,000, 17,000, 20,000, 21,000, 24,000, 25,000, 27,500, 30,000 and 35,000 rpm. The cell radii were scanned using 0.001 cm steps with 10 averages/scan. Data were analyzed using Beckman XLA data analysis software (version 3.01 for Windows) and Beckman-Origin software (version 3.78 for Windows). […] The partial specific volumes were held constant for all models considered.
Single data files were normalized to 270 nm absorbance values using Beer's Law. The data obtained with solutions containing the DP107-like peptides were then analyzed using a single ideal species model to determine a weight-averaged molecular weight (Mw). Diagnostic plots of Mw/Mw0 vs. rpm/rpm0 and Mw vs. radial concentration were used to test for sample homogeneity as described, e.g., by McRorie & Voelker, 1993, Self-Associating Systems in the Analytical Ultracentrifuge, Beckman Instruments, Inc., Palo Alto; and Yphantis et al., 1978, in Physical Aspects of Protein Interactions: Proceedings of the Symposium on Protein Interactions, American Chemical Society Meeting, Catsimpoolas, Ed., pp. 275-303, Elsevier, Miami Beach, Fla. […] To convert the resulting association constant from absorbance units to concentration units, it was assumed that the absorbance of the n-mer is n times that of the monomer.
The data obtained with DP107-like/DP178-like peptide mixtures were first analyzed with a single ideal species model. […] The mixtures were analyzed with a two-ideal species model, choosing one species to have a molecular weight of either 28,269 Da (corresponding to three DP107-like plus three DP178-like peptides) or […] (corresponding to four DP107-like plus four DP178-like peptides).

For “AVSKVLHLEGEVNKIKSALLSTNKAVVSLSNGVSVLTSKVLDLKNYIDKQ [Peptide T1772, RSV DP107-like peptide, residues 153-202 of the RSV F-protein]”, the “association constant Ka, monomer/trimer equilibrium, single data set” value (100 μM, 24,000 rpm, 4° C.) was 2.45×10^9 M^−2, the “association constant Ka, monomer/trimer equilibrium, global fit” value (Group I: 15, 50 and 100 μM) was 5.03 × 10^8 M^−2 and the “association constant Ka, monomer/trimer equilibrium, global fit” value (Group II: 25, 75 and 150 μM) was 5.37 × 10^8 M^−2.
